Results of unrelated studies side by side (data: NIAID ChemDB).

Common to all: tests in culture; species: Candida albicans; endpoint: MIC

Neighbouring rows are from separate reports.

smiles | strain | value
CN=C(NC)SCCN(CCSC(=NC)NC)CCSC(=NC)NC | ATCC 18804 | 250 µg/mL
CCC(C)CC(C)CCCCCCCCC(=O)N[C@H]1C[C@@H](O)[C@H](NCCN)NC(=O)[C@@H]2[C@@H](O)CCN2C(=O)[C@H]([C@H](O)CCN)NC(=O)[C@H]([C@H](O)[C@@H](O)c2ccc(O)cc2)NC(=O)[C@@H]2C[C@@H](O)CN2C(=O)[C@H]([C@@H](C)O)NC1=O | Clinical isolates | 0.029 µg/mL
CC1C=C(c2ccc(Cl)cc2Cl)C(=O)O1 | ATCC 44859 | 31.25 µM
CCCCOCn1c[n+](CNC(=O)c2cccnc2)c2ccccc21 | ATCC 10231 | 1335 µM
CCN(CC)Cn1c(C=Cc2ccc(OC)cc2)nc2ccccc21 | - | 35.7 µM
CCCOCn1c[n+](CNC(=O)c2cccnc2)c2ccccc21 | ATCC 10231 | >1387 µM
COc1cccc([C@]2(Cn3ccnc3)C[C@@H](CS(=O)c3ccc(Cl)cc3)ON2C)c1 | ATCC10259 | >70 µg/mL
C[C@H]1[C@H](O)[C@@H](C)/C=C/C=C/C=C/C=C/C=C/C=C/C=C/[C@H](O[C@@H]2O[C@H](C)[C@@H](O)[C@H](N)[C@@H]2O)C[C@@H]2O[C@](O)(C[C@@H](O)C[C@@H](O)CC[C@H](O)[C@@H](O)C[C@@H](O)CC(=O)O[C@H]1C)C[C@H](O)[C@H]2C(=O)O | ATCC 18804 | 0.25 µg/mL
CCCCCCCCCCCOC[n+]1cccc(NCn2nnc3ccccc32)c1 | ATCC 10231 | 139 µM
COS(=O)(=O)[O-].Cn1c(-c2c[nH]c3ccccc23)c[n+](C)c1-c1cn(C)c2cc(Br)ccc12 | - | >50 µg/mL
C[C@@H](n1ccn(-c2ccc(C(F)(F)F)cc2)c1=O)C(O)(Cn1cncn1)c1ccc(F)cc1F | TIMM1756 | <0.016 µg/mL
Nc1[nH]c(=O)ncc1F | 2968 | 0.5 µg/mL
Cn1cccc1-c1n[nH]c(=O)n1CCCCCCn1c(-c2cccn2C)n[nH]c1=O | ATCC 90028 | 7.5 µg/mL
CCN(CC)Cn1c(C=Cc2ccc(N(C)C)cc2)nc2ccccc21 | - | 17.2 µM
C[C@@H](n1ncn(-c2ccc(OCC(F)(F)C(F)F)cc2)c1=O)[C@](O)(Cn1cncn1)c1ccc(F)cc1F | TA | 0.008 µg/mL
CCCCOC[n+]1cccc(NCn2nnc3ccccc32)c1 | ATCC 10231 | >1439 µM
C[C@@H](n1ccn(-c2ccc(OCC(F)(F)C(F)F)cc2)c1=O)C(O)(Cn1cncn1)c1ccc(F)cc1F | TA | <0.016 µg/mL
CC(C)c1nc2c(N)cc(C(C)(C)C)cc2[nH]c1=O | - | >200 µM
Cc1ccc(C2=CC(C)OC2=O)cc1 | ATCC 44859 | >125 µM
CCCCCCCCCC[C@H]1OC(=O)CNC(=O)[C@@H]([C@H](C)O)NC(=O)[C@@H](CO)NC(=O)[C@H]([C@H](C)CC)NC(=O)[C@H](CC(C)C)N(C)C(=O)[C@@H]1C | - | >100 µg/mL
COc1cccc(C2=CC(C)OC2=O)c1 | ATCC 44859 | 62.5 µM
O=C(c1ncc(-c2c[nH]c3cc(Br)ccc23)[nH]1)c1c[nH]c2cc(O)ccc12 | - | >50 µg/mL
CCCCCC[C@H]1OC(=O)CNC(=O)[C@@H]([C@@H](C)O)NC(=O)[C@@H](CO)NC(=O)[C@H]([C@H](C)CC)NC(=O)[C@H](CC(C)C)N(C)C(=O)[C@@H]1C | - | >100 µg/mL
C[C@@H](n1ccn(-c2ccc(OC(F)(F)F)cc2)c1=O)C(O)(Cn1cncn1)c1ccc(F)cc1F | TA | <0.016 µg/mL
CCC1/C=C/C=C/CCC(O)C(C)C(O)CC(OC)CC(O)C(C)C(O)C(CC)/C=C/C(=O)OC2CC3(CCC(C)C(CC(O)C(C)O)O3)OC(CC1)C2CCCO | - | 12.5 µg/mL
COc1ccc2[nH]c(=O)c(CBr)nc2c1Cl | - | >200 µM
Oc1ccc(/C=C/c2ccc(Cl)cc2)cc1 | PCM 1409 PZH | 25 µg/mL
COc1ccc2nc(C(C)C)c(=O)[nH]c2c1Cl | - | >200 µM
CN1O[C@H](CSc2ccc([N+](=O)[O-])cc2)C[C@]1(c1ccc(Cl)cc1)n1ccnc1 | ATCC10259 | 7 µg/mL
CC1C=C(c2ccc(Br)c3ccccc23)C(=O)O1 | ATCC 44859 | >125 µM
CCCCCCCCCOCn1c[n+](CNC(=O)c2cccnc2)c2ccccc21 | ATCC 10231 | 562 µM
O=c1[nH]c2ccc(Cl)c(Cl)c2nc1CBr | - | >200 µM
CCCCCC1C=C(c2ccc(Cl)c(Cl)c2)C(=O)O1 | ATCC 44859 | 125 µM
CCCCCOCn1c[n+](CNC(=O)c2cccnc2)c2ccccc21 | ATCC 10231 | 1287 µM
COc1ccc2ncc(=O)[nH]c2c1Cl | - | >200 µM
Cn1cccc1CC(=O)NNC(=O)NCCCCCCNC(=O)NNC(=O)Cc1cccn1C | ATCC 90028 | 7.5 µg/mL
CCCCCCCCCCOCn1c[n+](CNC(=O)c2cccnc2)c2ccccc21 | ATCC 10231 | 1091 µM
C=C1C(=O)ON(C)C1C(C)CCC | - | 37.5 µg/mL
C[C@@H](N1CCN(c2ccc(OCC(F)(F)C(F)F)cc2)C1=O)C(O)(Cn1cncn1)c1ccccc1F | TIMM1756 | <0.016 µg/mL
CCN(CC)Cn1c(C=Cc2ccc(O)cc2)nc2ccccc21 | - | 37.2 µM
CCCCCCCCCOC[n+]1cccc(NCn2nnc3ccccc32)c1 | ATCC 10231 | 299 µM
CC(C)N=C(N)c1ccc2nc(-c3ccc4c(c3)Cc3cc(-c5nc6ccc(C(N)=NC(C)C)cc6[nH]5)ccc3-4)[nH]c2c1 | Isolate CA2601 fluconazole-resistant | 1.56 µg/mL
CCN(CC)Cn1c(C=Cc2ccc(Cl)cc2)nc2ccccc21 | - | 283 µM
C[C@@H](N1CCN(c2ccc(OC(F)(F)C(F)F)cc2)C1=O)C(O)(Cn1cncn1)c1ccccc1F | TIMM1756 | <0.016 µg/mL
Cc1ccc(SC[C@@H]2C[C@](c3ccc(Cl)cc3)(n3ccnc3)N(C)O2)cc1 | ATCC10259 | 20 µg/mL
CC(C)c1nc2ccc(Cl)c(Cl)c2[nH]c1=O | - | >200 µM
CC(=O)Oc1ccc(C(Br)C(Br)c2ccc([N+](=O)[O-])cc2[N+](=O)[O-])cc1 | PCM 1409 PZH | 100 µg/mL
CCCCCC[C@H]1OC(=O)CNC(=O)[C@@H]([C@H](C)O)NC(=O)[C@@H](CO)NC(=O)[C@H]([C@H](C)CC)NC(=O)[C@H](CC(C)C)N(C)C(=O)[C@@H]1C | - | >100 µg/mL
C[C@@H](n1ccn(-c2ccc(OC(F)(F)C(F)F)cc2)c1=O)C(O)(Cn1cncn1)c1ccc(F)cc1F | TIMM1756 | <0.016 µg/mL
Cc1n[nH]c(=O)n1CCCCCCn1c(C)n[nH]c1=O | ATCC 90028 | 7.5 µg/mL
Cc1ccc(SC[C@@H]2C[C@](c3ccccc3)(n3ccnc3)N(C)O2)cc1 | ATCC10259 | 7 µg/mL

Blank or dashed fields: not listed here.